Compound potency records, mixed from different reports. Data source: NIAID ChemDB in PubChem.

Shared fields: tests in culture; species: Cryptococcus neoformans

Neighbouring rows are from separate reports.

| smiles | measure | tested at | strain | read by | value |
|---|---|---|---|---|---|
| CC(=O)OC[C@H]1O[C@@H](O[C@@H]2[C@@H](N=[N+]=[N-])[C@H](O)[C@H](O)[C@H]3OC(C)(C)O[C@H]32)[C@H](OC(C)=O)[C@@H](OC(C)=O)[C@H]1OC(C)=O | inhibition | 125 µg/mL | ATCC 32264 | broth dilution / turbidity | 17.35% |
| O=[N+]([O-])c1ccc(C=Nc2ccccc2O)cc1 | MIC | - | F-10 | broth dilution | 11.3 µg/mL |
| NCCCC[C@H](NC(=O)[C@H](CCCN=C(N)N)NC(=O)[C@H](CCCN=C(N)N)NC(=O)[C@H](CCCCN)NC(=O)[C@H](CCCCN)NC(=O)[C@@H](N)CCCCN)C(=O)N[C@@H](CCCN=C(N)N)C(=O)O | inhibition | 100 µM | ATCC 32264 | - | 14% |
| Cn1nc(Cc2ccc(Cl)cc2)c2ccccc2c1=O | MIC50 | - | Clinical isolate (IM 983040) | broth dilution | 3.9 µg/mL |
| Oc1ccccc1N=Cc1ccc2c(c1)OCO2 | MIC99 | - | 96806 | - | 5.7 µg/mL |
| CC(C)(C)C(=O)OC1CCN(CC(O)(Cn2cncn2)c2ccc(F)cc2F)CC1 | MIC80 | - | BLS108 | broth dilution | 0.592 µM |
| Oc1ccc(O)c(C=Nc2ccccc2O)c1 | MIC99 | - | ATCC 24067 | - | 8 µg/mL |
| C[C@@H](n1cnc2cc(Cl)ccc2c1=O)[C@](O)(Cn1cncn1)c1ccc(F)cc1F | MFC | - | Isolate 114.96 | - | 20 µg/mL |
| CCC(C)c1ccc(Cn2cc(CN3CCN([C@H](C)[C@](O)(Cn4cncn4)c4ccc(F)cc4F)CC3)c3ccccc32)cc1 | MIC80 | - | ATCC 36556 | resazurin | >128 µg/mL |
| CCC(C)n1ncn(-c2ccc(N3CCN(c4ccc(OC[C@H]5CO[C@](Cn6cncn6)(c6ccc(Cl)cc6Cl)O5)cc4)CC3)cc2)c1=O | MIC90 | - | 37 strains | - | 0.25 µg/mL |
| CCC(C)CC(C)CCCCCCCCC(=O)N[C@H]1C[C@@H](O)[C@H](NCCN)NC(=O)[C@@H]2[C@@H](O)CCN2C(=O)[C@H]([C@H](O)CCN)NC(=O)[C@H]([C@H](O)[C@@H](O)c2ccc(O)cc2)NC(=O)[C@@H]2C[C@@H](O)CN2C(=O)[C@H]([C@@H](C)O)NC1=O | MIC | - | B 36535 | broth dilution | 8 µg/mL |
| CN[C@H]1CC[C@@H](c2ccc(Cl)c(Cl)c2)c2ccccc21 | MFC | - | 99BC1-40 | broth dilution | 8 µg/mL |
| NC(=S)N/N=C(\N)c1ccccn1 | MIC100 | - | ATCC 24067D2 | - | 52.53 µM |
| CCOC(=O)c1cnc(NCCCCNc2ccnc3cc(Cl)ccc23)nc1C | MIC99 | - | ATCC 62066 | - | 8 µg/mL |
| C[C@@H](N1CCN(Cc2cn(Cc3ccc(Cl)cc3)c3c(Cl)cccc23)CC1)[C@](O)(Cn1cncn1)c1ccc(F)cc1F | MIC80 | - | ATCC 36556 | resazurin | >128 µg/mL |
| CCOC(=O)c1c(C)nc(NCCCNc2ccnc3cc(Cl)ccc23)nc1-c1ccccc1 | MIC99 | - | C-3-1 | - | 2 µg/mL |
| C[C@@H](n1ncn(-c2ccc(OCC(F)(F)C(F)F)cc2)c1=O)[C@](O)(Cn1cncn1)c1ccc(F)cc1F | MFC | - | DUMC 135.97 | - | 0.5 µg/mL |
| C[C@@H](c1ncncc1F)[C@](O)(Cn1cncn1)c1ccc(F)cc1F | MIC50 | - | - | broth dilution | 0.03 µg/mL |
| C=CCn1cc(CN2CCN([C@H](C)[C@](O)(Cn3cncn3)c3ccc(F)cc3F)CC2)c2ccc(Cl)cc21 | MIC80 | - | ATCC 36556 | resazurin | >128 µg/mL |
| Cc1nc(NCCCCNc2ccnc3cc(Cl)ccc23)nc(-c2ccccc2)c1C(=O)OC(C)C | MIC99 | - | LMM 820 | - | 8 µg/mL |
| Nc1ncccc1-c1cc(Cc2ccc(COc3ccccn3)cc2)no1 | MIC50 | - | - | broth dilution | 0.13 µg/mL |
| C[C@@H](N1CCN(Cc2cn(Cc3ccc(F)cc3)c3ccccc23)CC1)[C@](O)(Cn1cncn1)c1ccc(F)cc1F | MIC80 | - | ATCC 36556 | resazurin | >128 µg/mL |
| Oc1ccccc1N=Cc1ccccc1 | MIC | - | 5396 | broth dilution | 5.7 µg/mL |
| O=C(/C=C/c1ccccc1F)OC1CCN(CC(O)(Cn2cncn2)c2ccc(F)cc2F)CC1 | MIC80 | - | BLS108 | broth dilution | 0.129 µM |
| CCC(C)n1ncn(-c2ccc(N3CCN(c4ccc(OC[C@H]5CO[C@](Cn6cncn6)(c6ccc(Cl)cc6Cl)O5)cc4)CC3)cc2)c1=O | Mean MIC | - | 42 isolates (HIV+) | - | 0.101 µg/mL |
| O=C(/C=C/c1ccc(Cl)cc1)OC1CCN(CC(O)(Cn2cncn2)c2ccc(F)cc2F)CC1 | MIC80 | - | BLS108 | broth dilution | 0.498 µM |
| C[C@H]([C@](O)(Cn1cncn1)c1ccc(F)cc1F)S(C)(=O)=O | EC50 | - | R715 (AZOLE-R) | - | 1.5 µM |
| CCC(C)n1ncn(-c2ccc(N3CCN(c4ccc(OC[C@H]5CO[C@](Cn6cncn6)(c6ccc(Cl)cc6Cl)O5)cc4)CC3)cc2)c1=O | MFC99 | - | A28201 | - | 4 µg/mL |
| CCCC(=O)OC1CCN(CC(O)(Cn2cncn2)c2ccc(F)cc2F)CC1 | MIC80 | - | BLS108 | broth dilution | 0.153 µM |
| C=C1CO[C@H]2[C@@H](C)OC(OC[C@@]34C[C@H]5[C@H](C)CC[C@@H]5[C@@]5(C=O)C[C@@H]3C=C(C(C)C)[C@@]45C(=O)O)C[C@@H]12 | MIC90 | - | 22 strains (serotype C) | - | 1 µg/mL |
| C=CCc1ccc(Cn2cc(CN3CCN([C@H](C)[C@](O)(Cn4cncn4)c4ccc(F)cc4F)CC3)c3cccc(F)c32)cc1 | MIC80 | - | ATCC 36556 | resazurin | >128 µg/mL |
| O=C(/C=C/c1cccc([N+](=O)[O-])c1)OC1CCN(CC(O)(Cn2cncn2)c2ccc(F)cc2F)CC1 | MIC80 | - | BLS108 | broth dilution | 0.122 µM |
| CCOC(=O)c1c(C)nc(NCCCCNc2ccnc3cc(Cl)ccc23)nc1-c1ccccc1 | MIC99 | - | ATCC 28957 | - | 1.4 µg/mL |

ECn is the concentration giving n% inhibition of infection, replication or growth. Inhibition is in % at the dose shown (toxicity tests: loss of growth or viability). MIC50, MIC90 and the like: level of inhibition, or share of isolates inhibited. An empty or dashed field is not shown.